The target in the series is CRP (cAMP receptor protein) (UniProt A6TEZ6). As to the kind of experiment: EMSA. As to conditions: CRP 1-4 uM, poly(dI-dC) 30 ug/mL, BSA, no cAMP listed in buffer; recombinant protein; protein details: His-tag (pET30b); probe letters rebuilt from the primers and the genome. A general note: Mobility shift assays separate free from complexed probe on a gel.

The exact form of at least one protein or probe is not confirmed.

1 sequence from publication PMC6629953 can be followed below.

In the case of “ATGAGCGAAGCTAGCGAAAGAGACCAGGGAGAGCATACCGGCAGCGGCGAGTAATTTTACGTTTTTCATGGTGTTTGTCCTTTTAACTTTTATGGTGGAAAGCATGTTTGCTTTCGATGGACTTATAATAAGCCTGCTAACTATAACGCGCGTGGCAAAAAGTGCGATTTAGATCACATTTTTATGGCGGTTTGATGGCGTAAACATGATCGTTTATCTATTTTTTAGTTTAAAAACAATGGATTAATGATTTGTTTCTGAAAGGGGGGATCACATGGGCTGCCCTTGTTCAGGGAGAGGAATGCGCCTCATTCATGCTTTCACCATTCGTTGTGTGAATGGTTTGGTGCTGTTTTCACCACCGCAAAGGCAGATTCAGACTTATCGCGATGGC (double strand) [mrkA upstream region (394 bp)]”, the binding result is “binds”.
